pIC50: −log10 of the molar value.
Molecular target: Botulinum neurotoxin type A2 [1-425] (Clostridium botulinum, UniProt Q45894)
Settings: pH 7.4

Amino acid sequences for entries named in this document (tags omitted). Residues count along the entry.
UniProt Q45894, 1-425: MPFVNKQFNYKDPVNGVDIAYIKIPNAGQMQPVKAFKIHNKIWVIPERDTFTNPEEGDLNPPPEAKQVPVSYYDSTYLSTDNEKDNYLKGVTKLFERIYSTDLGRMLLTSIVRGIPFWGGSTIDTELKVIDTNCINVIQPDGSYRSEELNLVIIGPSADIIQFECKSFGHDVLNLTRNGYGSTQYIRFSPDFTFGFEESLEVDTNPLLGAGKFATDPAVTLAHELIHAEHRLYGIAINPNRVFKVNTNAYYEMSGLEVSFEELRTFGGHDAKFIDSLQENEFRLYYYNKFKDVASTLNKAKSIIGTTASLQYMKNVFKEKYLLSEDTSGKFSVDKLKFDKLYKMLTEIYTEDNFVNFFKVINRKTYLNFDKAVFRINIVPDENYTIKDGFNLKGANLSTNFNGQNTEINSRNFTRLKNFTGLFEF

| Structure (SMILES) | pIC50 |
| --- | --- |
| COc1ccc(CCNC(=O)CN(CC(=O)NC2CC2c2ccccc2)C(=O)Cn2c(C(=O)N[C@H]3CCCC[C@@H]3NC(=O)c3cc4ccccc4n3CC(=O)N(CC(=O)NCCc3ccc(OC)cc3)CC(=O)NC3CC3c3ccccc3)cc3ccccc32)cc1 (some centres not stated) | 5.12 |
| CCC1CN(C(=O)C=Cc2ccccc2)CC(=O)N1Cc1ccc(C)cc1 (configuration not stated) | 4.90 |
